Assay results reported in US9096492B2, “Hydrated N-fullerene amino acids, method for producing the latter, and pharmaceutical compositions on the basis thereof” (priority 2011, dated 2015).
Where two headings read alike, the source gives them in different places.

System: A/Swine/1976/31 (H1N1) influenza virus
Format: in vivo, mice

## N-fullerene tris(δ-aminocaproic acid) hydrate [Agent 1]
30 mg/kg, Summary dose, n=30
  Index of protection: 21.7
30 mg/kg, virus 1 LD50, n=15
  Index of protection: 25.0
30 mg/kg, virus 10 LD50, n=15
  Index of protection: 21.0
100 mg/kg, Summary dose, n=28
  Index of protection: 45.7
100 mg/kg, virus 1 LD50, n=15
  Index of protection: 50.0
100 mg/kg, virus 10 LD50, n=13
  Index of protection: 42.0
300 mg/kg, Summary dose, n=28
  Index of protection: 55.6
300 mg/kg, virus 1 LD50, n=14
  Index of protection: 59.8
300 mg/kg, virus 10 LD50, n=14
  Index of protection: 53.8
